Tested on: strawberries
Test: Average daily mass loss rate, residues and fungal growth of coated strawberries
Conditions: spray coated, 10 mg/mL in ethanol

| SMILES | visible residues on surface |
| --- | --- |
| CCCCCCCCCCCCCCCC(=O)OC(CO)CO [PA-2G, 1,3-dihydroxypropan-2-yl palmitate] | heavy (wide-spread visible residues covering most or all of the surface) |
| CCCCCCCCCCCCCCCC(=O)OCC(O)CO (centres unmarked) [PA-1G, 2,3-dihydroxypropan-1-yl palmitate] | heavy (wide-spread visible residues covering most or all of the surface) |
